Values from PubChem BioAssay AID1259414 (Drosophila RNAi Screening Center, 2018).
Purpose: 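Genome-wide screen for host control of endosymbiont load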 (primary screen). Cell system: Drosophila JW18 cells infected with Wolbachia. Knock-down reagent: long dsRNA against Drosophila genes, 0.25 µg dsRNA per well of a 384-well plate. Timing: 5 days. Conditions: cells persistently infected with Wolbachia before knock-down; no added drug. Read-out: 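Imaged fluorescence in situ signal for Wolbachia 23S rRNA per DAPI-counted host cell, given as a robust z-score within each plate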. Scale: Wolbachia per cell robust z: higher = more Wolbachia per host cell than the plate typical. Active means: 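Hit when robust z is 1.5 or more, or -1.5 or less, in at least two of three replicates; excludes dsRNAs with several or no targets, genes not expressed in JW18 and well A1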.
The screen tested about 24,000 reagents; below is an unselected part of those with a known target gene and a result. In the full data, about 1,210 (5%) are marked active. 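Inactive calls also include excluded dsRNAs with several or no targets, genes unexpressed in JW18, and well A1, regardless of score.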 A plus sign joins genes that one reagent is predicted to hit. Reagent sequences are not shown.

| Target gene | dsRNA | Wolbachia per cell robust z, rep 1 | Wolbachia per cell robust z, rep 2 | Wolbachia per cell robust z, rep 3 | activity call |
| --- | --- | --- | --- | --- | --- |
| CR42532 (pseudo) | DRSC06713 | -2.96 | -0.822 | -0.63 | inactive |
| P5cr-2 (Pyrroline-5-carboxylate reductase-like 2) | DRSC15889 | -2.33 | 1.15 | 1.06 | inactive |
| CG16868 | DRSC06633 | -1.12 | 0.37 | -0.573 | inactive |
| CAH14 (Carbonic anhydrase 14) | DRSC04234 | 0.111 | -2.17 | -0.695 | inactive |
| CAH14 (Carbonic anhydrase 14) | DRSC22160 | 0.679 | -1.84 | -0.607 | inactive |
| Grip128 | DRSC20167 | -0.0311 | -0.533 | 0.703 | inactive |
| Trmt6 (tRNA methyltransferase 6 non-catalytic subunit) | DRSC03272 | -1.1 | -9.04 | -0.629 | inactive |
| spaw (spacewatch) | DRSC06824 | -0.0455 | -1.63 | 0.126 | inactive |
| Cks85A (Cyclin-dependent kinase subunit 85A) | DRSC16562 | -4.29 | -2.61 | -3.18 | active |
| ChT (Choline transporter) | DRSC16296 | 2.6 | 0 | -2.44 | inactive |
| mthl1 (methuselah-like 1) | DRSC19905 | 0.756 | 0.825 | 0.38 | inactive |
| trem (trade embargo) | DRSC15575 | 0.0417 | 0.536 | 0.0761 | inactive |

Entries above whose gene name starts with T or t (2):
| Target gene | dsRNA | Wolbachia per cell robust z, rep 1 | Wolbachia per cell robust z, rep 2 | Wolbachia per cell robust z, rep 3 | activity call |
| --- | --- | --- | --- | --- | --- |
| Trmt6 (tRNA methyltransferase 6 non-catalytic subunit) | DRSC03272 | -1.1 | -9.04 | -0.629 | inactive |
| trem (trade embargo) | DRSC15575 | 0.0417 | 0.536 | 0.0761 | inactive |

Continued.
| Target gene | dsRNA | Wolbachia per cell robust z, rep 1 | Wolbachia per cell robust z, rep 2 | Wolbachia per cell robust z, rep 3 | activity call |
| --- | --- | --- | --- | --- | --- |
| CG42337 | DRSC11686 | 1.67 | -0.612 | 1.06 | inactive |
| CG42337 | DRSC23099 | -0.995 | -4.27 | -0.725 | inactive |
| CG42337 | DRSC27038 | -2.17 | -0.166 | 0.297 | inactive |
| rg (rugose) | DRSC17726 | 0.746 | -0.175 | 0.21 | inactive |
| rg (rugose) | DRSC18047 | -0.229 | -6.19 | -0.84 | inactive |
| rg (rugose) | DRSC18049 | -0.00314 | 0.415 | 1.31 | inactive |
| rg (rugose) | DRSC22086 | -0.103 | -0.938 | 0.711 | inactive |
| rg (rugose) | DRSC29144 | -0.634 | 0.444 | 0.506 | inactive |
| CG3176 + CR18166 + CG32817 | DRSC17271 | 0.147 | 1.03 | 0.693 | inactive |
| CG3176 + CR18166 + CG32817 | DRSC17282 | 0.991 | -0.167 | 0.205 | inactive |
| CG11912 | DRSC00332 | 0.0689 | -6.04 | 0.921 | inactive |
| CG4374 | DRSC15570 | -3.36 | 0.582 | 0.703 | inactive |
| CG4374 | DRSC27482 | 0.638 | -1.17 | 0.685 | inactive |
| CG12945 | DRSC14573 | 0.344 | -7.43 | 0.363 | inactive |
| CG4995 | DRSC02801 | -0.587 | 0.766 | 0.0288 | inactive |
| CG4995 | DRSC41523 | 0.581 | 0.648 | 0.669 | inactive |
